Taken from: PubChem BioAssay AID624099 (ICCB-Longwood, 2012)

- Test: 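Human genes that papillomavirus E2 requires to repress the HPV18 LCR promoter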 (primary screen)
- System: human C33A cervical carcinoma cells (HPV-negative) stably expressing BPV1 E2 and an HPV18 LCR luciferase reporter
- Reagents: siRNA pool against human genes, 40 nM
- Timing: 72 h
- Measurement: 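Per-well luciferase luminescence, z-scored on each plate against the plate mean and SD with control wells left out, then averaged across three replicate plates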
- Scale: mean z-score and z-score: higher = stronger reporter signal, weaker E2 silencing
- Active means: 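Mean z ≥ 2 together with z ≥ 2 in two or more of the three replicates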
Here is an unselected part of about 21,000 deposited reagents. Over the whole deposit, 497 (2.4%) are marked active. 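Higher z means weaker E2 silencing; only reporter increases were scored, and knock-downs that hurt cell survival may mask genuine repressor factors.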 Unmarked entries are inactive.

Silencing of NR3C2 (nuclear receptor subfamily 3 group C member 2) came out at: mean z-score 0.55; z-score, replicate A = 0.49; z-score, replicate B = 0.7; z-score, replicate C = 0.46.
For TCF3 (transcription factor 3), the values are mean z-score -1.24; z-score, replicate A = -1.32; z-score, replicate B = -1.41; z-score, replicate C = -0.99.
With knock-down of GLIPR1L1 (GLIPR1 like 1), the screen gave mean z-score -0.9; z-score, replicate A = -0.99; z-score, replicate B = -0.74; z-score, replicate C = -0.97.
Depletion of ZBTB46 (zinc finger and BTB domain containing 46) resulted in: mean z-score 0.99; z-score, replicate A = 0.96; z-score, replicate B = 0.83; z-score, replicate C = 1.19.
After knock-down of SDF2L1 (stromal cell derived factor 2 like 1), the record shows mean z-score 0.58; z-score, replicate A = 0.66; z-score, replicate B = 0.56; z-score, replicate C = 0.52.
Against STMN2 (stathmin 2), the entry reads mean z-score -0.2; z-score, replicate A = 0.04; z-score, replicate B = -0.34; z-score, replicate C = -0.31.
After knock-down of ALX3 (ALX homeobox 3) the results were mean z-score -1.29; z-score, replicate A = -1.62; z-score, replicate B = -1.06; z-score, replicate C = -1.17.
With knock-down of DDR2 (discoidin domain receptor tyrosine kinase 2), the screen gave mean z-score 0.1; z-score, replicate A = -0.13; z-score, replicate B = 0.28; z-score, replicate C = 0.17.
After knock-down of GRK5 (G protein-coupled receptor kinase 5) the results were mean z-score -0.11; z-score, replicate A = -0.02; z-score, replicate B = 0.18; z-score, replicate C = -0.49.
PPIL1 (peptidylprolyl isomerase like 1) scored mean z-score 0.02; z-score, replicate A = 0.68; z-score, replicate B = 0.2; z-score, replicate C = -0.81.
Silencing of DISP3 (dispatched RND transporter family member 3) came out at: mean z-score 1.08; z-score, replicate A = 0.34; z-score, replicate B = 2.41; z-score, replicate C = 0.48.
Depletion of COX6A1 (cytochrome c oxidase subunit 6A1) resulted in: mean z-score -0.71; z-score, replicate A = -0.45; z-score, replicate B = -0.65; z-score, replicate C = -1.04.
Knock-down of SF3B2 (splicing factor 3b subunit 2) came out at: mean z-score -0.98; z-score, replicate A = -1.02; z-score, replicate B = -0.69; z-score, replicate C = -1.24.
With knock-down of ZBBX (zinc finger B-box domain containing) the results were mean z-score 1.29; z-score, replicate A = 1.3; z-score, replicate B = 1.26; z-score, replicate C = 1.31.
Against HCFC1R1 (host cell factor C1 regulator 1), the values are mean z-score 1.23; z-score, replicate A = 1.39; z-score, replicate B = 1.51; z-score, replicate C = 0.8.
For LOC400846 (retired record), the entry reads mean z-score 0.39; z-score, replicate A = 0.43; z-score, replicate B = 0.67; z-score, replicate C = 0.06.
YAP1 (Yes1 associated transcriptional regulator) showed mean z-score -0.68; z-score, replicate A = -0.2; z-score, replicate B = -0.96; z-score, replicate C = -0.89.
Depletion of ZNF512B (zinc finger protein 512B) resulted in: mean z-score -1.12; z-score, replicate A = -1.01; z-score, replicate B = -1.14; z-score, replicate C = -1.21.
With knock-down of TIGD5 (tigger transposable element derived 5) the results were mean z-score -0.85; z-score, replicate A = -1.11; z-score, replicate B = -0.92; z-score, replicate C = -0.52.
LOC389550 (retired record) gave mean z-score 2.86 (active); z-score, replicate A = 1.99; z-score, replicate B = 3.3; z-score, replicate C = 3.28.
Knock-down of FAM151A (family with sequence similarity 151 member A) resulted in: mean z-score -0.31; z-score, replicate A = -0.62; z-score, replicate B = -0.05; z-score, replicate C = -0.25.
